The text below walks through data of PubChem BioAssay AID573 (SRMLSC, 2007).

Only a part is listed here, and it is no random draw. The source made the active and inactive calls.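 The calls were made as follows: active = growth inhibition at or above a cutoff equal to the mean over every tested compound plus 3 SD (cut at about 60% in these data); inactive = the rest.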

The test is described as follows: growth inhibitors of E. coli tolC mutant, primary screen, strain BW25113 ΔtolC::kan, 384-well (AID 573).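 Also: growth measured after 20 h incubation at 37 °C.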 The note with it: OD615, active compounds read high, screened at 10 µM (by protocol). In a few lines:
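signal = optical density read at 615 nm | test system = E. coli ΔtolC::kan strain BW25113 | timing = 20 h compound exposure of bacteria at 37 °C | buffer or medium = LB medium plus 50 µg/mL kanamycin | compound dosing = 10 µM final, single dose | evaluation = % inhibition of E. coli growth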
`O=P(Nc1nccs1)(c1ccccc1)c1nc2ccccc2s1` (stereo not given): the growth inhibition was inactive: 7.27%. Regarding `CCOP1(=S)c2c(C)nn(CCC#N)c2N=C(c2ccccc2F)N1C` (stereo not given), the growth inhibition is inactive: 1.98%. Consider `CCOP1(=S)c2c(C)nn(CCC#N)c2N=C(c2ccc(F)cc2)N1C` (stereo not given), for which the growth inhibition was inactive: -2.64%. With `Cc1cccc(OCC(=O)OC2CN3CCC2CC3)c1` (stereo not given) the figure was inactive: 7.01%; with `Clc1n[nH]nc1-c1nn[nH][15n]1`, inactive: -15.7%.

Consider `O=P1(Nc2ccccn2)COc2ccccc2OC1`, for which the growth inhibition is inactive: -11.6%. With `Cc1nn(-c2ccccc2)c2c1P(=O)(N1CCOCC1)N(C)C(c1ccccc1)=N2` (stereo not given) the figure was inactive: 2.98%; with `Cc1ccc(OCC(=O)OC2CN3CCC2CC3)cc1` (stereo not given), inactive: 8.99%; with `O=P1(Nc2ccc(Br)cn2)COc2ccccc2OC1`, inactive: 6.85%. With `O=P1(Nc2ncccn2)COc2ccccc2OC1` the figure was inactive: -16.4%; with `O=C(COc1ccccc1)OC1CN2CCC1CC2` (stereo not given), inactive: -18.9%.

As to `COP1(=S)c2c(C)nn(CCC#N)c2N=C(c2ccc(F)cc2)N1C` (stereo not given), the growth inhibition is inactive: 6.61%.

As to `O=C(OC1CN2CCC1CC2)C12CC3CC(CC(C3)C1)C2` (stereo not given), the growth inhibition is inactive: -34%. Take `Cc1c2non([O-])c-2c(C)[n+](=O)[n+]1[O-]`: the growth inhibition was inactive: 14.5%. In the case of `CCc1nc2c(n1)c1c(non1O)c1c2no[n+]1[O-]` it was inactive: 5.44%; in that of `O=C(OC1CN2CCC1CC2)c1cccc(Cl)c1` (stereo not given), inactive: 9.84%.

`c1nnnn1CCn1cnnn1`: the growth inhibition was inactive: -2.28%. On to `O=P(Nc1nccs1)(c1ccccc1)c1ccccc1`, for which the growth inhibition was inactive: 3.82%.

On to `O=P1(Nc2nc3ccc(Cl)cc3s2)COc2ccccc2O1` (stereo not given), for which the growth inhibition is inactive: -10.6%. In the case of `COC(=O)c1cc2c(s1)N=C(c1ccccc1)N(C)P2(=O)N1CCOCC1` (stereo not given) it was inactive: -1.56%.
